Measured values from several laboratories, pooled; numbers as filed in NIAID ChemDB.

Shared fields: tests in culture; agent: HIV-2

An empty or dashed field is not shown. Rows are shuffled and stem from different studies. ECn: concentration that inhibits the pathogen or its effect by n%.

smiles,cell line,strain,read-out,read by,result
Cc1cc(C)nc(NS(=O)(=O)c2ccc(N=C3C(=O)Nc4ccc(Cl)cc43)cc2)n1,MT-4,ROD,EC50,cytopathic effect / MTT,118 µg/mL
Cc1cn([C@@H]2O[C@H](CO[Si](C)(C)C(C)(C)C)C3(OS(=O)(=O)C=C3N)[C@H]2O[Si](C)(C)C(C)(C)C(C)C)c(=O)n(C)c1=O,CEM,ROD,EC50,syncytia,>30 µM
Oc1cc(O)c2c(c1)O[C@H](c1cc(O)c(O)c(O)c1)[C@H](O)C2,C8166,ROD,EC50,ELISA,>100 µg/mL
COc1ncnc2c1ncn2[C@@H]1O[C@H](CO[Si](C)(C)C(C)(C)C)C2(OS(=O)(=O)C=C2N)[C@H]1O[Si](C)(C)C(C)(C)C,MT-4,ROD,EC50,trypan blue,>4 µg/mL
Cc1cn([C@H]2C[C@H](N=[N+]=[N-])[C@@H](COC(=O)CCC(=O)OC[C@H]3O[C@@H]4O[C@H]5[C@H](O)[C@@H](O)[C@@H](O[C@H]6[C@H](O)[C@@H](O)[C@@H](O[C@H]7[C@H](O)[C@@H](O)[C@@H](O[C@H]8[C@H](O)[C@@H](O)[C@@H](O[C@H]9[C@H](O)[C@@H](O)[C@@H](O[C@H]3[C@H](O)[C@H]4O)O[C@@H]9CO)O[C@@H]8CO)O[C@@H]7CO)O[C@@H]6CO)O[C@@H]5CO)O2)c(=O)[nH]c1=O,MT-4,ROD,EC50,cytopathic effect / MTT,0.038 µg/mL
O=S1(=O)NC(Cc2ccc(Cl)cc2Cl)=CC(=NC2CCN(Cc3c(Cl)cccc3Cl)CC2)N1,MT-4,ROD,EC50,MTT,>48.2 µM
Cc1cn([C@H]2C[C@H](N=[N+]=[N-])[C@@H](CO)O2)c(=O)[nH]c1=O,MT-4,ROD,EC50,MTT,0.0005 µg/mL
Cc1cn([C@@H]2O[C@H](CC3CCCCC3)C3(OS(=O)(=O)C=C3N)[C@H]2OC(=O)c2ccccc2)c(=O)[nH]c1=O,CEM,ROD,EC50,syncytia,>4 µg/mL
Cc1cn([C@H]2C[C@H](Nc3nc(N)nn3C)[C@@H](CO)O2)c(=O)[nH]c1=O,CEM,ROD,EC50,cytopathic effect / MTT,65 µg/mL
CC(=O)NC1=CS(=O)(=O)OC12[C@@H](COCc1ccccc1)O[C@@H](n1cc(C)c(=O)[nH]c1=O)[C@@H]2OC(C)=O,CEM,ROD,EC50,syncytia,>160 µM
Cc1cc(C)c(Nc2ccc([N+](=O)[O-])c(NC3CCN(Cc4ccc(C(N)=O)cc4)CC3)n2)c(C)c1,MT-4,ROD,EC50,MTT,>25 µM
COC(=O)N[C@H](C(=O)N[C@@H](Cc1ccccc1)[C@@H](O)CN(Cc1ccc(-c2ccccn2)cc1)NC(=O)[C@@H](NC(=O)OC)C(C)(C)C)C(C)(C)C,MT-2,ROD,EC50,MTT,0.02 µM
O=c1[nH]cnc2c1ncn2[C@H]1CC[C@@H](CO)O1,MT-4,ROD,EC50,MTT,16 µM
C=C(COCP(=O)(O)O)Cn1cnc2c(=O)[nH]c(N)nc21,CEM,ROD,EC50,-,6 µM
CC(C)(C)[Si](C)(C)OC[C@H]1O[C@@H](n2cnc3nc[nH]c(=O)c32)[C@H](O[Si](C)(C)C(C)(C)C)C12OS(=O)(=O)C=C2N,MT-4,ROD,EC50,trypan blue,>4 µg/mL
O=C1CS(=O)(=O)OC12C1CC3CC(C1)CC2C3,-,-,EC50,-,>200 µg/mL
Cc1cn([C@H]2C[C@H](N=C(N)n3cncn3)[C@@H](CO)O2)c(=O)[nH]c1=O,CEM,ROD,EC50,cytopathic effect / MTT,>20 µg/mL
Nc1nc(=O)n([C@@H]2CS[C@H](CO)O2)cc1F,MT-4,ZY,EC50,cytopathic effect,1.5 µM
Cc1cc(C)c(Nc2ccc([N+](=O)[O-])c(NC3CCN(Cc4ccncc4)CC3)n2)c(C)c1,MT-4,ROD,EC50,MTT,>31 µM
Cc1cn([C@H]2C=C[C@@H](COP(=O)(O)OP(=O)(O)OP(=O)(O)O)O2)c(=O)[nH]c1=O,-,-,EC50,-,0.97 µM
c1nc[nH]n1,CEM,ROD,EC50,cytopathic effect / MTT,>100 µg/mL
CC(=O)N1C(=O)C(=Nc2ccc(S(=O)(=O)Nc3nc(C)cc(C)n3)cc2)c2ccccc21,MT-4,ROD,EC50,cytopathic effect / MTT,90.9 µg/mL
Cc1cn([C@@H]2O[C@@H](CO[Si](C)(C)C(C)(C)C)C3(OS(=O)(=O)C=C3N)[C@@H]2O[Si](C)(C)C(C)(C)C)c(=O)[nH]c1=O,CEM,ROD,EC50,syncytia,>20 µg/mL
Cn1cnc2ncn([C@@H]3O[C@H](CO[Si](C)(C)C(C)(C)C)C4(OS(=O)(=O)C=C4N)[C@H]3O[Si](C)(C)C(C)(C)C)c2c1=O,MT-4,ROD,EC50,trypan blue,>100 µg/mL
Cc1cccc2c1OP(=O)(OC[C@@H]1C=C[C@H](n3cc(C)c(=O)[nH]c3=O)O1)OC2,CEM + CEM TK-,ROD,EC50,syncytia,0.06 µM
Cc1cn([C@@H]2O[C@H](C)C3(OS(=O)(=O)C=C3N)[C@H]2O[Si](C)(C)C(C)(C)C)c(=O)[nH]c1=O,MT-4,ROD,EC50,cytopathic effect / trypan blue,>100 µg/mL
CC(C)(C)[Si](C)(C)OC[C@H]1O[C@@H](n2cnc3c(N)ncnc32)[C@H](O[Si](C)(C)C(C)(C)C)C12OS(=O)(=O)C=C2N,MT-4,ROD,EC50,trypan blue,>4 µg/mL
Cc1cn([C@@H]2O[C@H](COCc3ccccc3)C3(OS(=O)(=O)C(Cc4ccccc4)=C3NCc3ccccc3)[C@H]2O[Si](C)(C)C(C)(C)C)c(=O)n(C)c1=O,MT-4,ROD,EC50,syncytia,>130 µM
O=c1c(O)c(-c2ccc(O)c(O)c2)oc2cc(O)cc(O)c12,C8166,ROD,EC50,ELISA,>50 µg/mL
Cc1cn([C@H]2C[C@H](F)[C@@H]([C@@H](C)O)O2)c(=O)[nH]c1=O,CEM,ROD,EC50,syncytia,27 ± 18 µg/mL
N#Cc1ccc(CN2CCC(N=C3C=C(Cc4ccc(Cl)cc4Cl)NS(=O)(=O)N3)CC2)cc1,MT-4,ROD,EC50,MTT,>107 µM
Cc1cn([C@H]2C[C@H](F)[C@@H](C(C)O)O2)c(=O)[nH]c1=O,CEM,ROD,EC50,syncytia,7 ± 4.2 µg/mL
O=C(CSc1sc(Cl)nc1-c1ccc(Br)cc1Br)Nc1cccnc1Cl,MT-4,ROD,EC50,MTT,>23.24 µM
CC(=O)O[C@@]12C[C@@H](C)[C@@]3(O)[C@@H](C=C(CO)C[C@]4(O)C(=O)C(C)=C[C@@H]34)[C@@H]1C2(C)C,MT-4,EHO,EC50,cytopathic effect / MTT,0.03 µg/mL
Nc1ncnc2c1ncn2CCOCP(=O)(O)O,CEM,-,EC50,syncytia,10 µM
CC(C)CN(C[C@@H](O)[C@H](Cc1ccccc1)NC(=O)O[C@H]1CO[C@H]2OCC[C@H]21)S(=O)(=O)c1ccc(N)cc1,MT-2,ROD,EC50,MTT,0.021 µM
Cc1cn([C@H]2C[C@H](N=[N+]=[N-])[C@@H](CO)O2)c(=O)nc1N,PBMC,ROD,EC50,RT activity,0.016 µM
Cc1cn([C@@H]2O[C@H](CO[Si](C)(C)C(C)(C)C)C3(OS(=O)(=O)C=C3N)[C@H]2O[Si](C)(C)C(C)(C)C)c(=O)n(C)c1=O,MT-4,ROD,EC50,syncytia,>20 µM
Cc1cc(C#N)cc(C)c1Oc1ccc([N+](=O)[O-])c(NC2CCN(Cc3ccc(S(N)(=O)=O)cc3)CC2)n1,MT-4,ROD,EC50,MTT,>27 µM
Cc1cn([C@H]2C[C@H](N=[N+]=[N-])[C@@H](COC(=O)CCC(=O)OCC3OC4OC5C(COS(=O)(=O)O)OC(OC6C(COS(=O)(=O)O)OC(OC7C(COS(=O)(=O)O)OC(OC8C(COS(=O)(=O)O)OC(OC9C(COS(=O)(=O)O)OC(OC3C(OS(=O)(=O)O)C4OS(=O)(=O)O)C(OS(=O)(=O)O)C9OS(=O)(=O)O)C(OS(=O)(=O)O)C8OS(=O)(=O)O)C(OS(=O)(=O)O)C7OS(=O)(=O)O)C(OS(=O)(=O)O)C6OS(=O)(=O)O)C(OS(=O)(=O)O)C5OS(=O)(=O)O)O2)c(=O)[nH]c1=O,MT-4,ROD,EC50,cytopathic effect / MTT,3.69 µg/mL
CCn1cnc2ncn([C@@H]3O[C@H](CO[Si](C)(C)C(C)(C)C)C4(OS(=O)(=O)C=C4N)[C@H]3O[Si](C)(C)C(C)(C)C)c2c1=O,MT-4,ROD,EC50,trypan blue,>100 µg/mL
Cc1cc(C)nc(NS(=O)(=O)c2ccc(N=C3C(=O)Nc4ccc(Br)cc43)cc2)n1,MT-4,ROD,EC50,cytopathic effect / MTT,78.2 µg/mL
Cc1cn([C@H]2C=C[C@@H](CO)O2)c(=O)[nH]c1=O,CEM + CEM TK-,ROD,EC50,syncytia,8.7 µM
Cc1cc(C)c(Nc2ccc([N+](=O)[O-])c(NC3CCN(Cc4ccc(S(C)(=O)=O)cc4)CC3)n2)c(C)c1,MT-4,ROD,EC50,MTT,>21 µM
Cc1cn([C@H]2C[C@H](N=[N+]=[N-])[C@@H](CO)O2)c(=O)[nH]c1=O,MT-4,ROD,EC50,cytopathic effect / MTT,0.0028 µM
CN=C1CN=C(c2ccc[nH]2)c2cc(Cl)ccc2N1,HT4 + HT4-6C,ROD,EC90,plaque count,>10 µM
C=C1[C@H](CO)[C@@H](O)C[C@@H]1n1cnc2c(=O)[nH]c(N)nc21,MT-4,ROD,EC50,MTT,>28 µM
Cc1cn([C@@H]2O[C@H](CO[Si](C)(C)C(C)(C)C)[C@@]3(OS(=O)(=O)C=C3N)[C@H]2O[Si](C)(C)C(C)(C)C)c(=O)[nH]c1=O,MT-4,ROD,EC50,cytopathic effect / trypan blue,>4 µg/mL
Cc1cn([C@H]2C[C@H](N=[N+]=[N-])[C@@H](CO)O2)c(=O)[nH]c1=O,PBMC,ROD-2,EC50,RT activity,0.004 µM
Oc1cc(O)c2c(c1)O[C@H](c1cc(O)c(O)c(O)c1)[C@@H](O)C2,C8166,ROD,EC50,ELISA,8 µg/mL
O=S1(=O)NC(Cc2cccc3ccccc23)=CC(=NC2CCN(Cc3ccccc3)CC2)N1,MT-4,ROD,EC50,MTT,>117 µM
Cc1cc(C)c(Oc2ccc([N+](=O)[O-])c(NC3CCN(Cc4ccc(C(N)=O)cc4)CC3)n2)c(C)c1,MT-4,ROD,EC50,MTT,>19 µM
Cc1cn([C@H]2C=C[C@@H](COP3(=O)OCc4ccc5ccccc5c4O3)O2)c(=O)[nH]c1=O,CEM + CEM/O,ROD,EC50,syncytia,0.1 µM
Cc1cn([C@@H]2O[C@H](CO[Si](C)(C)C(C)(C)C)C3(OS(=O)(=O)C=C3N)[C@H]2O)c(=O)[nH]c1=O,CEM,ROD,EC50,syncytia,>40 µM
C#C[C@]1(CO)O[C@@H](n2cnc3c(N)nc(F)nc32)CC1O,MAGIC-5A,ROD9,EC50,β-galactosidase / absorbance,0.00042 µM
O=C(CSc1sc(Cl)nc1-c1ccc(Br)cc1Br)Nc1ccccc1Br,MT-4,ROD,EC50,MTT,>8.25 µM
Nc1ncnc2c1ncn2[C@H]1C=C[C@@H](CO)O1,C8166,ROD,EC50,-,32 µM
C[C@H](Cn1cnc2c(N)ncnc21)OCP(=O)(O)O,CEM,ROD,EC50,-,7 µM
CC(=O)c1ccc(CN2CCC(N=C3C=C(Cc4ccc(Cl)cc4Cl)NS(=O)(=O)N3)CC2)cc1,MT-4,ROD,EC50,MTT,>99.45 µM
O=c1[nH]cnc2c1ncn2[C@H]1CC[C@@H](CO)O1,C8166,ROD,EC50,-,15 µM
Cc1cc(C#N)cc(C)c1Oc1ccc(N)c(NC2CCN(Cc3ccc(S(N)(=O)=O)cc3)CC2)n1,MT-4,ROD,EC50,MTT,>24 µM
Nc1ccn([C@H]2CC[C@@H](CO)O2)c(=O)n1,MT-4,ROD,EC50,MTT,0.88 µM
Cc1cc(C)c(Oc2ccc(N)c(NC3CCN(Cc4ccc(S(C)(=O)=O)cc4)CC3)n2)c(C)c1,MT-4,ROD,EC50,MTT,>28 µM
Cc1cn([C@@H]2O[C@H](CO[Si](c3ccccc3)(c3ccccc3)C(C)(C)C)C3(OS(=O)(=O)C=C3N)[C@H]2O[Si](C)(C)C(C)(C)C)c(=O)n(C)c1=O,MT-4,ROD,EC50,syncytia,>30 µM
c1cc(CN2CCCNCCNCCCNCC2)ccc1CN1CCCNCCNCCCNCC1,MT-4,ROD,EC50,MTT,0.001 µg/mL

A second listing of 7 rows from above:

smiles,cell line,strain,read-out,read by,result
c1cc(CN2CCCNCCNCCCNCC2)ccc1CN1CCCNCCNCCCNCC1,MT-4,ROD,EC50,MTT,0.001 µg/mL
Cc1cn([C@H]2C[C@H](N=[N+]=[N-])[C@@H](COC(=O)CCC(=O)OC[C@H]3O[C@@H]4O[C@H]5[C@H](O)[C@@H](O)[C@@H](O[C@H]6[C@H](O)[C@@H](O)[C@@H](O[C@H]7[C@H](O)[C@@H](O)[C@@H](O[C@H]8[C@H](O)[C@@H](O)[C@@H](O[C@H]9[C@H](O)[C@@H](O)[C@@H](O[C@H]3[C@H](O)[C@H]4O)O[C@@H]9CO)O[C@@H]8CO)O[C@@H]7CO)O[C@@H]6CO)O[C@@H]5CO)O2)c(=O)[nH]c1=O,MT-4,ROD,EC50,cytopathic effect / MTT,0.038 µg/mL
C=C1[C@H](CO)[C@@H](O)C[C@@H]1n1cnc2c(=O)[nH]c(N)nc21,MT-4,ROD,EC50,MTT,>28 µM
c1nc[nH]n1,CEM,ROD,EC50,cytopathic effect / MTT,>100 µg/mL
Cc1cn([C@@H]2O[C@H](COCc3ccccc3)C3(OS(=O)(=O)C(Cc4ccccc4)=C3NCc3ccccc3)[C@H]2O[Si](C)(C)C(C)(C)C)c(=O)n(C)c1=O,MT-4,ROD,EC50,syncytia,>130 µM
C=C(COCP(=O)(O)O)Cn1cnc2c(=O)[nH]c(N)nc21,CEM,ROD,EC50,-,6 µM
COC(=O)N[C@H](C(=O)N[C@@H](Cc1ccccc1)[C@@H](O)CN(Cc1ccc(-c2ccccn2)cc1)NC(=O)[C@@H](NC(=O)OC)C(C)(C)C)C(C)(C)C,MT-2,ROD,EC50,MTT,0.02 µM